Data reported in US6812025B2, “Two hybrid assay that detects HIV-1 reverse transcriptase dimerization” (priority 2000, dated 2004).

Legend:
[1] = target: T1, lexA87-66W401A and Gal4AD-HA-51W401A (Human immunodeficiency virus type 1 group M subtype B, UniProt P12497, W988A); type: cell-based, HIV-1
T1 construct: Yeast expressing both p66 bait and p51 prey fusions containing the W401A mutation; expressed in transfected cells; host or cells: Saccharomyces cerevisiae CTY10-5d
Text: […]; Preparation of protein extracts and immunoprecipitation were as previously described (30) except for the use of anti-HA.11 monoclonal antibodies (clone 16B12; Covance, Princeton, N.J.) and Protein G-PLUS agarose beads (Santa Cruz Biotechnology; Santa Cruz, Calif.). Samples were resolved by SDS-PAGE. The leXA87-66 fusion protein was probed using monoclonal antibodies 7E5 which specifically detects p66 (31).
[…]. […] […].

[2] = target: p66 bait and p51 prey fusions with the W401A change (Human immunodeficiency virus type 1 group M subtype B, UniProt P12497, W988A); details: compared to no drug
Experimental: CTY10-5d transformed constructs expressing p66 bait and p51 prey fusions were grown overnight to stationary phase in synthetic complete medium without histidine and leucine and containing 2% glucose (SC-His-Leu). […] Yeast were grown with aeration at 30° C. to OD600=0.5. The equivalent of 1 OD600 unit was pelleted for each treatment and subjected to a quantitative b-gal liquid assay.
Hemagglutinin (HA) antibodies were used to immunoprecipitate the p51 prey and the presence of any bound p66 bait was then detected using anti-p66 specific antibodies. For coimmunoprecipitation of the p66 bait fusions, samples were divided into two with one part processed without added NNRTI while the other was maintained in drug at the same concentration used during growth of yeast.

## O=C1Nc2ccc(Cl)cc2[C@@](C#CC2CC2)(C(F)(F)F)O1 [efavirenz]
[1]; 1.6 μM efavirenz added during the procedure
  heterodimer in lysates of yeast grown without drug, drug added during coimmunoprecipitation, W401A: significantly more heterodimer present
[1]; yeast grown in efavirenz (1.6 μM) or UC781 (16 μM), compared to no drug
  amount of p66 bait coimmunoprecipitated with p51 prey (heterodimer formation), W401A: clear increase
[2]
  b-gal activity, W401A change in one or both subunits: dramatic increase in b-gal activity
